# Laboratory results: patent US7432045B2 (priority 2003, dated 2008)
# Test system: Influenza virus strain PR8
# Parameters: species or system mice
# Details: mouse, in vivo
smiles,measurement,value
"CCCC[C@H](NC(=O)[C@H](CCCNC(=N)N)NC(=O)CN)C(=O)N[C@@H](CCCC)C(=O)N[C@@H](CCCNC(=N)N)C(=O)N[C@@H](CCCNC(=N)N)C(=O)N[C@@H](CCC(N)=O)C(=O)N[C@@H](CCCNC(=N)N)C(=O)N[C@@H](CCCNC(=N)N)C(=O)N[C@@H](CCCNC(=N)N)C(=O)N[C@@H](CS)C(=O)O [n50,51TAT-C, NH2-GRnLnLRRQRRRC-COOH]",mice protected,90%
